PubChem BioAssay AID624099 | ICCB-Longwood – 2012

Test: 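Human genes that papillomavirus E2 requires to repress the HPV18 LCR promoter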 (primary screen)
Cell system: human C33A cervical carcinoma cells (HPV-negative) stably expressing BPV1 E2 and an HPV18 LCR luciferase reporter
Reagent: siRNA pool against human genes, 40 nM
Time to read-out: 72 h
Measured: 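HPV18 LCR reporter light per well, converted to plate-wise z-scores that exclude control wells, and averaged over triplicate plates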
Scale: mean z-score and z-score: higher = stronger reporter signal, weaker E2 silencing
Call rule: 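Hit if mean z-score reaches 2 and two or more of three replicate z-scores also reach 2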
The deposit covers about 21,000 reagents; this is a random part of them. Of all reagents, 497 (2.4%) were called active. 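Higher z means weaker E2 silencing; only reporter increases were scored, and knock-downs that hurt cell survival may mask genuine repressor factors.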 Reagents against one gene are numbered here.

| gene | pool no. | mean z-score | z-score, replicate A | z-score, replicate B | z-score, replicate C | outcome |
| --- | --- | --- | --- | --- | --- | --- |
| NAPA (NSF attachment protein alpha) | 1 | 0.04 | 0.07 | -0.18 | 0.21 | inactive |
| SERPINI1 (serpin family I member 1) | 1 | 0.61 | 0.64 | 0.4 | 0.8 | inactive |
| ASL (argininosuccinate lyase) | 1 | 0.17 | 0.09 | 0.18 | 0.25 | inactive |
| P4HA1 (prolyl 4-hydroxylase subunit alpha 1) | 1 | 0.58 | 0.52 | 0.6 | 0.64 | inactive |
| CHCHD5 (coiled-coil-helix-coiled-coil-helix domain containing 5) | 1 | 2.03 | 1.76 | 2.2 | 2.13 | active |
| ARHGEF5 (Rho guanine nucleotide exchange factor 5) | 1 | -1.18 | -1.73 | -0.74 | -1.07 | inactive |
| LOC388689 (retired record) | 1 | -0.09 | -0.24 | -0.19 | 0.16 | inactive |
| HRH3 (histamine receptor H3) | 1 | 0.06 | 0.13 | 0.06 | -0.02 | inactive |
| AFG2B (AAA ATPase AFG2B) | 1 | 3.14 | 3.21 | 2.88 | 3.32 | active |
| CRABP2 (cellular retinoic acid binding protein 2) | 1 | -0.14 | -0.46 | 0 | 0.04 | inactive |
| ESS2 (ess-2 spliceosome associated protein) | 1 | -0.94 | -1.03 | -0.85 | -0.95 | inactive |
| COL4A1 (collagen type IV alpha 1 chain) | 1 | 0 | -0.06 | 0.12 | -0.07 | inactive |
| AARS1 (alanyl-tRNA synthetase 1) | 1 | 1.57 | 1.53 | 1.54 | 1.63 | inactive |
| DIP2A (DIP2 acetate--CoA ligase A) | 1 | -1.07 | -1.04 | -1.14 | -1.04 | inactive |
| BEX4 (brain expressed X-linked 4) | 1 | 0.29 | 0.19 | 0.35 | 0.34 | inactive |
| MANSC1 (MANSC domain containing 1) | 1 | 0.44 | 0.24 | 0.56 | 0.51 | inactive |
| LOC402157 (retired record) | 1 | 0.05 | 0.4 | -0.35 | 0.1 | inactive |
| LRRN3 (leucine rich repeat neuronal 3) | 1 | 0.5 | 0.53 | 0.5 | 0.48 | inactive |
| LOC389370 (retired record) | 1 | -0.32 | -0.36 | -0.24 | -0.35 | inactive |
| ZNF471 (zinc finger protein 471) | 1 | 0.06 | 0.41 | -0.59 | 0.35 | inactive |
| ORMDL2 (ORMDL sphingolipid biosynthesis regulator 2) | 1 | -1.6 | -1.29 | -1.77 | -1.73 | inactive |
| FCAMR (Fc alpha and mu receptor) | 1 | -0.3 | -0.22 | -0.02 | -0.67 | inactive |
| STN1 (STN1 subunit of CST complex) | 1 | 0.42 | 0.56 | 0.37 | 0.32 | inactive |
| EPB41L5 (erythrocyte membrane protein band 4.1 like 5) | 1 | 0.64 | 0.85 | 0.71 | 0.37 | inactive |
| TNFRSF1A (TNF receptor superfamily member 1A) | 1 | -0.44 | -0.39 | -0.54 | -0.41 | inactive |
| RDH13 (retinol dehydrogenase 13) | 1 | 0.58 | 0.57 | 0.33 | 0.83 | inactive |
| VPS51 (VPS51 subunit of GARP complex) | 1 | -0.19 | -0.29 | -0.28 | 0.01 | inactive |
| SLC30A8 | 1 | 0.58 | 0.63 | 0.67 | 0.44 | inactive |
| EPHA6 (EPH receptor A6) | 1 | 2.72 | 2.96 | 2.99 | 2.22 | active |
| RAPGEFL1 (Rap guanine nucleotide exchange factor like 1) | 1 | 0.6 | 0.6 | 0.54 | 0.66 | inactive |
| ALG11 (ALG11 alpha-1,2-mannosyltransferase) | 1 | 0.35 | 0 | 0.7 | 0.35 | inactive |
| TIFA (TRAF interacting protein with forkhead associated domain) | 1 | -1.17 | -0.95 | -0.95 | -1.61 | inactive |
| GALNT11 (polypeptide N-acetylgalactosaminyltransferase 11) | 1 | 0.43 | 0.51 | 0.42 | 0.37 | inactive |
| SEPTIN1 (septin 1) | 1 | 0.24 | 0.01 | 0.54 | 0.16 | inactive |
| UBE2G1 (ubiquitin conjugating enzyme E2 G1) | 1 | 0.44 | 0.53 | 0 | 0.78 | inactive |
| MT1B (metallothionein 1B) | 1 | 0.09 | -0.09 | 0.29 | 0.05 | inactive |

Just “z-score, replicate B” (4 entries from above):
COL4A1 (collagen type IV alpha 1 chain)	0.12
AARS1 (alanyl-tRNA synthetase 1)	1.54
DIP2A (DIP2 acetate--CoA ligase A)	-1.14
BEX4 (brain expressed X-linked 4)	0.35

Continued:
| gene | pool no. | mean z-score | z-score, replicate A | z-score, replicate B | z-score, replicate C | outcome |
| --- | --- | --- | --- | --- | --- | --- |
| LOC392217 (retired record) | 1 | -0.02 | -0.39 | 0.33 | 0 | inactive |
| KIAA0586 | 1 | -0.07 | -0.04 | 0.06 | -0.24 | inactive |
| BMS1P1 (BMS1 pseudogene 1) | 1 | 0.31 | 0.15 | -0.09 | 0.86 | inactive |
| LOC401021 | 1 | 0.12 | -0.22 | 0.35 | 0.23 | inactive |
| SPRY3 (sprouty RTK signaling antagonist 3) | 1 | 0.28 | 0.36 | 0.15 | 0.35 | inactive |
| CPE (carboxypeptidase E) | 1 | 0.15 | 0.23 | -0.01 | 0.22 | inactive |
| SIGLEC10 (sialic acid binding Ig like lectin 10) | 1 | -0.46 | -0.68 | -0.12 | -0.57 | inactive |
| CNTFR (ciliary neurotrophic factor receptor) | 1 | 0.37 | 0.52 | 0.53 | 0.07 | inactive |
| PKIA (cAMP-dependent protein kinase inhibitor alpha) | 1 | -0.86 | -0.92 | -0.79 | -0.86 | inactive |
| DDB2 (damage specific DNA binding protein 2) | 1 | 0.94 | 0.65 | 0.98 | 1.19 | inactive |
| PDZK1 (PDZ domain containing 1) | 1 | 0.84 | 0.52 | 0.99 | 1.02 | inactive |
| LINC02593 (long independently transcribed non-coding RNA 2593) | 1 | -0.83 | -0.74 | -0.44 | -1.32 | inactive |
| GRXCR1 (glutaredoxin and cysteine rich domain containing 1) | 1 | 0.7 | 0.98 | 0.31 | 0.81 | inactive |
| HTR2C (5-hydroxytryptamine receptor 2C) | 1 | -0.4 | -0.06 | -0.35 | -0.79 | inactive |
| PARG (poly(ADP-ribose) glycohydrolase) | 1 | 1 | 1.24 | 1.1 | 0.67 | inactive |
| GUSBP14 (GUSB pseudogene 14) | 1 | -0.23 | -0.2 | -0.18 | -0.32 | inactive |
| GUSBP14 (GUSB pseudogene 14) | 2 | -0.71 | -0.69 | -0.99 | -0.45 | inactive |
| ARF6 (ARF GTPase 6) | 1 | -0.7 | -0.74 | -0.71 | -0.66 | inactive |
| PIGA (phosphatidylinositol glycan anchor biosynthesis class A) | 1 | -1.19 | -1.14 | -1.09 | -1.34 | inactive |
| ZNF600 (zinc finger protein 600) | 1 | -0.07 | 0.46 | -0.08 | -0.59 | inactive |
| KRTAP8-1 (keratin associated protein 8-1) | 1 | -0.45 | -0.4 | -0.26 | -0.68 | inactive |
| PTTG3P (pituitary tumor-transforming 3, pseudogene) | 1 | -0.7 | -0.73 | -0.6 | -0.76 | inactive |
| GZMB (granzyme B) | 1 | -0.44 | -0.96 | 0.08 | -0.45 | inactive |
| FBXL13 (F-box and leucine rich repeat protein 13) | 1 | -0.51 | -0.79 | -0.41 | -0.34 | inactive |
| OASL (2'-5'-oligoadenylate synthetase like) | 1 | -0.38 | -0.51 | -0.41 | -0.22 | inactive |
| SEM1 (SEM1 26S proteasome subunit) | 1 | 0.06 | -0.06 | 0.09 | 0.14 | inactive |
| SEM1 (SEM1 26S proteasome subunit) | 2 | -0.03 | 0 | 0.07 | -0.17 | inactive |
| SKAP2 (src kinase associated phosphoprotein 2) | 1 | -0.4 | -0.5 | -0.31 | -0.37 | inactive |
| IQCK (IQ motif containing K) | 1 | -0.02 | -0.09 | -0.06 | 0.1 | inactive |
| PCDHGA12 (protocadherin gamma subfamily A, 12) | 1 | 0.05 | -0.01 | 0.17 | 0 | inactive |
| BAIAP2L1 (BAR/IMD domain containing adaptor protein 2 like 1) | 1 | -0.5 | -0.33 | -0.8 | -0.36 | inactive |
| BUD31 (BUD31 spliceosome associated protein) | 1 | 1.51 | 1.4 | 1.45 | 1.69 | inactive |
| TYW3 (tRNA-yW synthesizing protein 3 homolog) | 1 | -0.08 | -0.16 | -0.04 | -0.03 | inactive |
| CLC (Charcot-Leyden crystal galectin) | 1 | 0.03 | -0.06 | 0.14 | -0.01 | inactive |
| RECQL4 (RecQ like helicase 4) | 1 | 0.16 | 0.45 | 0.19 | -0.15 | inactive |
| COL28A1 (collagen type XXVIII alpha 1 chain) | 1 | 0.28 | 0.37 | 0.1 | 0.38 | inactive |
| COL28A1 (collagen type XXVIII alpha 1 chain) | 2 | -0.23 | -0.35 | 0.04 | -0.4 | inactive |
| COL28A1 (collagen type XXVIII alpha 1 chain) | 3 | 0.6 | 0.43 | 0.65 | 0.71 | inactive |
